Experimental data: patent publication US6699901B1, “Dicarboxylato diammine platinum derivatives and compositions comprising them as anti-tumor agents” (priority 2000, dated 2004)

System: cancer
Test: Typical cases treated by oral capsules and injections
Format: in vivo, human
Conditions: Patient Xu, before or after injection
Procedure: 1. The oral capsules were composed of bicycloplatin and adjuvant. The patients took the oral capsules containing 20-30 mg of bicycloplatin.
2. Injections of bicycloplatin water solution at the concentration of 1% in 5 ml per ampoule. Bicycloplatin water solution was dissolved in 100 ml injection containing 5% of glucose and 0.9% of sodium chloride and injected intravenously once every two days, two ampoules every time. 100 ml of sodium chloride injection should be transfused after the dripping of bicycloplatin. A course of treatment took 6 times (12 ampoules). The second course of treatment began after an interval of two weeks. After three consecutive courses of treatment, general examination was taken.

With “double 1,1-cyclobutane dicarboxylic acid diaminoplatin complex [bicycloplatin]” the nausea and vomiting was “didn't occur”.
